## PSTVd loop 6 mutant pool in Nicotiana benthamiana

Source: Wu et al. 2024 (doi:10.1371/journal.ppat.1012142), supplementary data.

PSTVd intermediate strain, loop 6: wild type UGACCGCGAG, pool pattern UNNNCGNNNG; upper and lower strand joined, each 5' to 3', the first 5 letters being the upper strand, closing pairs included.

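Three N. benthamiana plants were inoculated with the whole mutant pool. Progeny were sequenced from the inoculated region (day 5), the margin of the inoculated leaf (day 10) and systemic leaves (day 12).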

Numbers give reads per thousand; 0 = not seen among the reads, higher = more abundant.
Each value is the mean of three plants.
"Pool" is the share in the plasmid pool used as inoculum, on the same scale.
The inoculated region was read from the minus strand, the other sites from the plus strand.
With 36,220-57,551 reads a sample, very low values are single reads.

sequence,pool,inoculated region,leaf margin,systemic leaves
UCCCCGAUCG,0.288,0.0241,0.00773,0
UUGGCUGUCC,0.0131,0,0,0
UUCCCGGGUG,0.170,0.0777,0,0
UCUUCGAAGG,0.222,0.0773,0,0
UCCACGUGCG,0.170,0.0704,0.0261,0
UGGACGCACG,0.261,0.125,0,0
UUGACGCGGG,0.340,0.107,0.00920,0
UUGUCGCUUG,0.288,0.0893,0,0
UAUUCGUUGG,0.353,0.0362,0,0
UUUUCGUUCG,0.105,0.101,0,0
UCCGCGCGCG,0.209,0.101,0,0
UGGGCGGAAG,0.0784,0.0357,0,0
UAUGCGGUUG,0.222,0.0242,0.00773,0
UAGGCGUUGG,0.248,0.137,0.00773,0
UACCCGACUG,0.314,0.0835,0.00773,0
UCAGCGUCUG,0.275,0.101,0,0
UCCGCGACUG,0.340,0.0952,0,0
UAAACGGAUG,0.327,0.518,0.0946,0.0323
UCUACGCAGG,0.0915,0.119,0.00920,0
UUCGCGCUGG,0.157,0.0710,0,0
UUGACGCCGG,0.183,0.0708,0,0
UGAACGAGUG,0.170,0.657,0.0902,0
UGCGCGGUGG,0.275,0.0650,0,0
UGGGCGGUGG,0.209,0.0656,0,0
UUUACGAAGG,0.105,0.101,0,0
UACCCGUACG,0.209,0.0784,0.00773,0
UCUUCGAGUG,0.288,0.161,0.0169,0
UCCGCGAUAG,0.275,0.0657,0.108,0.00684
UAACCGCCAG,0.157,0.675,0.0760,0.0340
UGUUCGAACG,0.275,0.132,0,0
UGAUCGAUCG,0.301,0.101,0.00773,0
UCCCCGCGUG,0.196,0.310,0.566,0.0128
UAUACGGUGG,0.418,0.137,0.0260,0
UCAGCGGUUG,0.235,0.101,0,0
UACCCGUUAG,0.340,0.113,0,0
UAACCGUGCG,0.235,0.643,0.0913,0
UUGGCGAGGG,0.288,0.132,0,0
UGGGCGGGUG,0.105,0.0892,0,0.0202
UGGUCGUUAG,0.366,0.114,0,0
UAUACGAGGG,0.340,0.113,0,0
UGUUCGGAUG,0.261,0.0946,0.0184,0.0196
UCGCCGUUCG,0.275,0.0944,0.0276,0
UGGCCGUGGG,0.131,0.120,0.0261,0.0544
UAAUCGUCGG,0.340,0.107,0,0
UUUACGCGAA,0.0131,0.597,0.0660,0
UUGCCGGCUG,0.340,0.0764,0,0
UCAGCGGAGA,0.0131,0,0,0
UAAGCGCAGG,0.209,0.0415,0,0
UUGACGGUUG,0.183,0.0706,0,0
UGAUCGGAAG,0.183,0.660,0.0800,0
UCGACGAAAG,0.196,0.0891,0,0
UCUACGAUCG,0.340,0.0893,0,0
UACGCGGUCG,0.235,0.0531,0.00773,0
UGUACGGGCG,0.183,0.0956,0,0
UAGGCGGGAG,0.157,0.0827,0.0155,0
UCACCGUACG,0.196,0.0840,0.0324,0
UAGGCACUGG,0.0131,0,0,0
UGCCCGGAGA,0.0131,0,0,0
UGAUCGAGUG,0.196,0.0833,0,0
UUAUCGAACG,0.275,0.601,0.00920,0
UUGUCGGUUG,0.209,0.113,0.00773,0
UGGGCGUGCG,0.144,0.0704,0.00773,0
UGACAGGAGG,0.0131,0,0,0
UUAGCGAGAG,0.261,0.143,0.00773,0.00684
UGAGCGCGGG,0.248,0.113,0.00920,0
UAAUCGGUUG,0.248,0.0769,0,0
UGCGCGUCAG,0.275,0.0949,0,0.00673
UCCGCGCAGG,0.222,0.0898,0.0169,0

Wild type was 20.7 per thousand in the pool and the most common sequence in every sample (inoculated region 195, 198, 203; leaf margin 629, 591, 734; systemic leaves 942, 870, 868).
The authors trace changes outside the varied positions to PCR and sequencing errors or to mutation in the plant; presence does not show that a variant is infectious alone.